From publication PMC11142304

Target: ATP
Assay: ITC
Conditions: parent: 15.37 ± 4.85

Substance | Kd [µM]
LnaB (recombinant, ITC and AUC) E309A | 13.2
LnaB (recombinant, ITC and AUC) S261A | 14.4
LnaB (recombinant, ITC and AUC) D183A | 16.1
LnaB (recombinant, ITC and AUC) Y196A | 13.8
LnaB (recombinant, ITC and AUC) H305A | 16.3
